Article PMC10593844, “Structure-function analyses reveal key molecular determinants of HIV-1 CRF01_AE resistance to the entry inhibitor temsavir” (Nature Communications, 2023)
“And” between values parts separate entries of the source, which are not always exact repeats. Equal entries are not always repeated.

Columns and labels:
[1] = test system: CRF01_AE 92TH023 Env […] on HEK293T cells; format: binding; conditions: 92TH023 […]; temsavir 10 µM; listed as TMR
[2] = test system: CRF01_AE CM244 Env […] on HEK293T cells; format: binding; conditions: temsavir 10 µM, listed as TMR

COc1cnc(-n2cnc(C)n2)c2[nH]cc(C(=O)C(=O)N3CCN(C(=O)c4ccccc4)CC3)c12 [Temsavir, temsavir]
sCD4 binding (+TMR) - Fold over DMSO [1]: 0.7004 and 0.8137 and 0.9458
sCD4 binding (+TMR) - Fold over DMSO [2]: 0.8887 and 0.735 and 0.8899
